Measurements from patent US20050049204A1, “Compounds for the treatment of flaviviridae infections” (priority 2003, published 2005).

System: HCV replicon RNA in Huh7 cells
Experiment: Reversal studies with natural nucleosides: HCV RNA
Assay type: cell-based, hepatitis C virus (HCV)
Details: natural nucleoside at 50 μM; test compound at the concentration given in Table 2
Experimental: Incubation times differed according to the type of experiment.
Cells were incubated with the test compound and, simultaneously, the natural ribo- or 2′-deoxy nucleosides (adenosine, guanosine (G), cytidine (C), uridine (U), 2′-deoxycytidine (dC), 2′-deoxyuridine, thymidine, 2′-deoxyguanosine (dG), and 2′-deoxyadenosine) (Table 2).

## C[C@@]1(O)[C@H](O)[C@@H](CO)O[C@H]1n1cnc2c(N)ncnc21 [2′C—CH3-A, 2′-C-methyl-adenosine]
  antiviral and toxic effect prevented by (natural nucleoside): could not be prevented by any of the natural nucleosides
